Anti-infective test results gathered from many reports (values: NIAID ChemDB through PubChem).

All rows: growth or infection tests; species: Streptococcus pneumoniae

Rows are shuffled and stem from different studies.

structure	measure	strain	value
CCOC(=O)c1nc(-c2ccc(N3C[C@H](CNC(C)=O)OC3=O)cc2F)ns1	MIC	UC9912	>16 µg/mL
CC[C@H]1OC(=O)[C@@](C)(F)C(=O)[C@H](C)[C@@H](O[C@@H]2O[C@H](C)C[C@H](N(C)C)[C@H]2O)[C@@]2(C)C[C@@H](C)C(=NC(C)=O)[C@H](C)[C@@H](OC/C(=N\OCc3ccc(-c4cccc(N)n4)s3)CO2)[C@]1(C)O	MIC	700906 (erythromycin A-resistant)	<0.06 µg/mL
O=C(NNC(=O)Nc1cc(C(F)(F)F)cc(C(F)(F)F)c1)Nc1ccccc1	MIC	STP51 (penicillin-resistant)	>200 µM
COc1c(N2C[C@@H]3CCCN[C@@H]3C2)ccc2c(=O)c(C(=O)O)cn(C3CC3)c12	MIC	D-1687	8 µg/mL
CC[C@H]1OC(=O)[C@H](C)C(=O)[C@H](C)[C@@H](O[C@@H]2O[C@H](C)C[C@H](N(C)C)[C@H]2O)[C@@]2(C)C[C@@H](C)C(=NC(C)=O)[C@H](C)[C@@H](OC/C(=N\OCc3ccc4nc(N)sc4c3)CO2)[C@]1(C)O	MIC	700906 (erythromycin-resistant-ERM)	<0.06 µg/mL
O=C(NNC(=O)Nc1ccc(Cl)c(Cl)c1)Nc1ccc(Cl)c(Cl)c1	MIC	STP6301	1.7 µM
CC[C@H]1OC(=O)[C@H](C)C(=O)[C@H](C)[C@@H](O[C@@H]2O[C@H](C)C[C@H](N(C)C)[C@H]2O)[C@@]2(C)C[C@@H](C)C(=NC(C)=O)[C@H](C)C(OC/C(=N\OCC#Cc3cccc(N)n3)CO2)[C@]1(C)O	MIC	49619 (erythromycin-susceptible)	<0.06 µg/mL
CC[C@H]1OC(=O)[C@H](C)C(=O)[C@H](C)[C@@H](O[C@@H]2O[C@H](C)C[C@H](N(C)C)[C@H]2O)[C@@]2(C)C[C@@H](C)C(=O)[C@H](C)C(OC/C=C/CO2)[C@]1(C)O	MIC	49619 (erythromycin-susceptible)	0.5 µg/mL
O=C(Nc1cccc(C2=NCCN2)c1)Nc1cccc(C2=NCCN2)c1	MIC	STP6301	99 µM
CC[C@H]1OC(=O)[C@H](C)C(=O)[C@H](C)[C@@H](O[C@@H]2O[C@H](C)C[C@H](N(C)C)[C@H]2O)[C@@]2(C)C[C@@H](C)C(=NC(C)=O)[C@H](C)C(OC/C(=C\C#Cc3cccnc3)CO2)[C@]1(C)O	MIC	7701 (erythromycin-resistant-MEF)	0.25 µg/mL
COc1c(N2CCNC(C)C2)c(F)cc2c(=O)c(C(=O)O)cn(C3CC3)c12	MIC90	96 strains	0.06 µg/mL
N[C@@H]1CN(c2c(F)cc3c(=O)c(C(=O)O)cn([C@@H]4C[C@@H]4F)c3c2Cl)CC12CC2	MIC	J24 (quinolone- penicillin-sensitive)	0.05 µg/mL
O=C(O)NC[C@H]1CC(c2cc(F)c(N3CCOCC3)c(F)c2)=NO1	MIC	UC9912	1 µg/mL
COCC1=C(C(=O)O)N2C(=O)C(NC(=O)/C(=N/OC)c3csc(N)n3)C2SC1	MIC50	595 strains	≤0.06 µg/mL
CC[C@H]1OC(=O)[C@H](C)C(=O)[C@H](C)[C@@H](O[C@@H]2O[C@H](C)C[C@H](N(C)C)[C@H]2O)[C@@]2(C)C[C@@H](C)C(=NC(C)=O)[C@H](C)[C@@H](OC/C(=N\Oc3ccc(-c4nnc(N)s4)cc3)CO2)[C@]1(C)O	MIC	49619 (erythromycin-susceptible)	<0.06 µg/mL
O=C(CC(=O)Nc1cc(C(F)(F)F)cc(C(F)(F)F)c1)Nc1cccc(C2=NCCN2)c1	MIC	STP51 (penicillin-resistant)	53 µM
CO/N=C1\CN(c2nc3c(cc2F)c(=O)c(C(=O)O)cn3C2CC2)CC1CN	MIC50	21 isolates ciprofloxacin-resistant	0.25 µg/mL
CC[C@H]1OC(=O)[C@@](C)(F)C(=O)[C@H](C)[C@@H](O[C@@H]2O[C@H](C)C[C@H](N(C)C)[C@H]2O)[C@@]2(C)C[C@@H](C)C(=O)[C@H](C)[C@@H](OC/C(=N\OCc3ccc(-n4cccn4)nc3)CO2)[C@]1(C)O	MIC	49619 (erythromycin A-susceptible)	<0.06 µg/mL
CC(=O)NC[C@H]1CN(c2ccc(-c3ccnn3C)c(F)c2)C(=O)O1	MIC	UC9912	≤0.5 µg/mL
COc1ccc(-c2ccc(C3=CC(CNC(C)=O)OC3=O)cc2)ccc1=O	MIC	UC9912	<0.5 µg/mL
CC[C@H]1OC(=O)[C@@](C)(F)C(=O)[C@H](C)[C@@H](O[C@@H]2O[C@H](C)C[C@H](N(C)C)[C@H]2O)[C@@]2(C)C[C@@H](C)C(=N)[C@H](C)[C@@H](OC/C(=N\OCc3ccc(-c4nccs4)nc3)CO2)[C@]1(C)O	MIC	7701 (erythromycin A-resistant)	0.25 µg/mL
CC[C@H]1OC(=O)[C@H](C)C(=O)[C@H](C)[C@@H](O[C@@H]2O[C@H](C)C[C@H](N(C)C)[C@H]2O)[C@@]2(C)C[C@@H](C)C(=NC(C)=O)[C@H](C)[C@@H](OC/C(=N\OCc3cccc(N)n3)CO2)[C@]1(C)O	MIC	7701 (erythromycin-resistant-MEF)	0.25 µg/mL
CC[C@H]1OC(=O)[C@H](C)C(=O)[C@H](C)[C@@H](O[C@@H]2O[C@H](C)C[C@H](N(C)C)[C@H]2O)[C@](C)(OC)C[C@@H](C)C(=O)[C@H](C)[C@H]2N(CCCCn3cnc(-c4cccnc4)c3)C(=O)O[C@]12C	MIC90		0.25 µg/mL
CC[C@H]1OC(=O)[C@@](C)(F)C(=O)[C@H](C)[C@@H](O[C@@H]2O[C@H](C)C[C@H](N(C)C)[C@H]2O)[C@@]2(C)C[C@@H](C)C(=NC(C)=O)[C@H](C)[C@@H](OC/C(=N\OCc3ccc(-c4csnn4)nc3)CO2)[C@]1(C)O	MIC	49619 (erythromycin A-susceptible)	<0.06 µg/mL
O=C(CC(=O)Nc1ccc(F)cc1)Nc1ccc(F)cc1	MIC	STP6301	>300 µM
O=C(O)NC[C@H]1CC(c2cc(F)c(N3CCN(C(=O)CO)CC3)c(F)c2)=NO1	MIC	UC9912	0.5 µg/mL
CCC(=O)NC[C@H]1CN(c2ccc(C3CCS(=O)(=O)CC3)c(F)c2)C(=O)O1	MIC	UC9912	0.5 µg/mL
CC[C@H]1OC(=O)[C@H](C)C(=O)[C@H](C)[C@@H](O[C@@H]2O[C@H](C)C[C@H](N(C)C)[C@H]2O)[C@@]2(C)C[C@@H](C)C(=NC(C)=O)[C@H](C)C(OC/C(=C\C=C\c3cccc([N+](=O)[O-])c3)CO2)[C@]1(C)O	MIC	700906 (erythromycin-resistant-ERM)	0.5 µg/mL
NC1CCN(c2nc3c(cc2F)c(=O)c(C(=O)O)cn3-c2ccc(F)cc2F)C1	MIC	J24 (quinolone- penicillin-sensitive)	0.05 µg/mL
COc1c(N2C[C@@H]3CCCN[C@@H]3C2)c(F)cc2c(=O)c(C(=O)O)cn(C3CC3)c12	MIC90	250 isolates (penicillin-resistant)	0.17 µg/mL
O=C(NC[C@H]1CN(c2ccc(C3CCS(=O)(=O)CC3)c(F)c2)C(=O)O1)C1CC1	MIC	UC9912	2 µg/mL
CC[C@H]1OC(=O)[C@H](C)C(=O)[C@H](C)[C@@H](O[C@@H]2O[C@H](C)C[C@H](N(C)C)[C@H]2O)[C@@]2(C)C[C@@H](C)C(=NC(C)=O)[C@H](C)[C@@H](OC/C(=N\OCC#Cc3ccc(N)nc3)CO2)[C@]1(C)O	MIC	700906 (erythromycin-resistant-ERM)	<0.06 µg/mL
CC[C@H]1OC(=O)[C@@](C)(F)C(=O)[C@H](C)[C@@H](O[C@@H]2O[C@H](C)C[C@H](N(C)C)[C@H]2O)[C@@]2(C)C[C@@H](C)C(=NC(C)=O)[C@H](C)[C@@H](OC/C(=N\OCc3ccc4nc(N)sc4c3)CO2)[C@]1(C)O	MIC	700906 (erythromycin A-resistant)	0.13 µg/mL
CC[C@H]1OC(=O)[C@H](C)C(=O)[C@H](C)[C@@H](O[C@@H]2O[C@H](C)C[C@H](N(C)C)[C@H]2O)[C@@]2(C)C[C@@H](C)C(=NC(C)=O)[C@H](C)C(OC/C(=C\C#Cc3ccc(N)nc3)CO2)[C@]1(C)O	MIC	700906 (erythromycin-resistant-ERM)	0.13 µg/mL
COc1c(N2CCNC(C)C2)c(F)cc2c(=O)c(C(=O)O)cn(C3CC3)c12	MIC50	15 strains	0.39 µg/mL
CC(=O)NC[C@H]1CN(c2ccc(-c3ccn(C(C)=O)n3)c(F)c2)C(=O)O1	MIC	UC9912	1 µg/mL
CC1(C)S[C@@H]2[C@H](NC(=O)[C@H](N)c3ccc(O)cc3)C(=O)N2[C@H]1C(=O)O	MIC50	595 strains	≤0.06 µg/mL
CC[C@H]1OC(=O)[C@@](C)(F)C(=O)[C@H](C)[C@@H](O[C@@H]2O[C@H](C)C[C@H](N(C)C)[C@H]2O)[C@@]2(C)C[C@@H](C)C(=NC(C)=O)[C@H](C)[C@@H](OC/C(=N\OCc3ccc4cnn(C(N)=O)c4c3)CO2)[C@]1(C)O	MIC	700906 (erythromycin A-resistant)	0.25 µg/mL
CC(=O)NC[C@H]1CN(c2ccc(-c3cnn(C(c4ccccc4)(c4ccccc4)c4ccccc4)c3)c(F)c2)C(=O)O1	MIC	UC9912	>64 µg/mL
CC[C@H]1OC(=O)[C@@](C)(F)C(=O)[C@H](C)[C@@H](O[C@@H]2O[C@H](C)C[C@H](N(C)C)[C@H]2O)[C@@]2(C)C[C@@H](C)C(=NC(C)=O)[C@H](C)[C@@H](OC/C(=N\OCc3ccc(N)nc3)CO2)[C@]1(C)O	MIC	7701 (erythromycin A-resistant)	0.25 µg/mL
CC(=O)NC[C@H]1CN(c2ccc(-c3ccn(CCC#N)n3)c(F)c2)C(=O)O1	MIC	UC9912	2 µg/mL
CC[C@H]1OC(=O)[C@@](C)(F)C(=O)[C@H](C)[C@@H](O[C@@H]2O[C@H](C)C[C@H](N(C)C)[C@H]2O)[C@@]2(C)C[C@@H](C)C(=NC(C)=O)[C@H](C)[C@@H](OC/C(=N\OCC#Cc3cccc(N)n3)CO2)[C@]1(C)O	MIC	49619 (erythromycin A-susceptible)	<0.06 µg/mL
O=C(NCCO)NNC(=O)Nc1cc(C(F)(F)F)cc(C(F)(F)F)c1	MIC	STP51 (penicillin-resistant)	>300 µM

4 of the rows above, restated:

structure,measure,strain,value
COc1c(N2CCNC(C)C2)c(F)cc2c(=O)c(C(=O)O)cn(C3CC3)c12,MIC90,96 strains,0.06 µg/mL
O=C(NCCO)NNC(=O)Nc1cc(C(F)(F)F)cc(C(F)(F)F)c1,MIC,STP51 (penicillin-resistant),>300 µM
CC[C@H]1OC(=O)[C@@](C)(F)C(=O)[C@H](C)[C@@H](O[C@@H]2O[C@H](C)C[C@H](N(C)C)[C@H]2O)[C@@]2(C)C[C@@H](C)C(=N)[C@H](C)[C@@H](OC/C(=N\OCc3ccc(-c4nccs4)nc3)CO2)[C@]1(C)O,MIC,7701 (erythromycin A-resistant),0.25 µg/mL
O=C(NNC(=O)Nc1ccc(Cl)c(Cl)c1)Nc1ccc(Cl)c(Cl)c1,MIC,STP6301,1.7 µM

Blank or dashed fields: not listed here. MIC50, MIC90 and the like: level of inhibition, or share of isolates inhibited.